In publication PMC13232947, “Structural basis for sarbecovirus Rc-o319 spike adaptation to Rhinolophus cornutus Bat ACE2 and constraints on switching to human ACE2” (2026) one finds Kd, koff and kon data, which are given here for 2 substances.

As usually defined, the Kd is the equilibrium constant for the complex coming apart. Low values mean tighter binding, high ones weaker binding. Broadly, the koff is a measure of how fast the partners let go of each other. Lower therefore signals a long-lived complex. A word on the kon: it is a measure of how fast the partners come together.

Where two headings read alike, the source gives them in different places.

Experiment [1] concerns the target Rc-o319 RBD-Fc, wild type (AA 293-506) (sarbecovirus Rc-o319).
For experiment [2] the target is unchanged. This is another data set of the same source.
For experiment [3] the target is unchanged. This is another data set of the same source.
Experiment [4] addresses Rc-o319-RBD-Fc (wild type) (bat sarbecovirus Rc-o319 (from Rhinolophus cornutus)).

As to “dimeric His-tagged Rhinolophus cornutus ACE2 (bACE2R.cor), AA 1-731”, in experiment [1], the Kd was 122 nM, the koff was 0.00292 s⁻¹ and the kon worked out at 23800 M⁻¹ s⁻¹. In experiment [2], the Kd is 241 nM, the koff worked out at 0.0165 s⁻¹ and the on-rate constant (kon) was 68600 M⁻¹ s⁻¹. In experiment [3], this substance returned a Kd of 75.9 nM, a koff of 0.00647 s⁻¹ and a kon of 85200 M⁻¹ s⁻¹.

In turn, “dimeric His-tagged Rhinolophus cornutus bat ACE2 (bACE2_(R.cor))” returned a Kd in experiment [4] of 76 nM.
